Data set [1] deals with T1, ArgR-His6 (Vibrio fluvialis 85003) (UniProt A0AAX2LJS0).
T1 sequence: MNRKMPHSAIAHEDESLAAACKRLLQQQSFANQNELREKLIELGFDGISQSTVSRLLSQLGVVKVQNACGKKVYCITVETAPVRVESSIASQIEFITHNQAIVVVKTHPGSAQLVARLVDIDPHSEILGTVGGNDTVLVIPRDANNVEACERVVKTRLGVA
Description: DNase I footprinting. The following applies: 5.40 uM ArgR, footprinting: 5.40 uM ArgR-His6, 40 uL, 37 C 0.5 h, recombinant protein, residues 1-161, probe letters rebuilt from the primers and the genome.

Data set [2] has as its target T1, ArgR-His6 (Vibrio fluvialis 85003). The data set is described as follows: EMSA. The conditions noted are these: EMSA: 20 mM Tris/HCl pH 7.6, 50 mM KCl, 1 mM EDTA, 5% glycerol, 200 ng BSA, 500 ng dI-dC, 15 ng probe, 30 C 20 min, recombinant protein, residues 1-161, label: biotin, probe letters rebuilt from the primers and the genome.

For at least one entry, the source does not settle the construct or the ends of the probe.

Take “CATCGGTTTGAGTTTGTCTCAGATCAATATTTTGGCCGATATTTTTGTTACATCGGACGTTTTTATTCGCCCTAAAGTCACTATCTACCCTTTAGAAATGCATACTTCAGTGCTATTGAGTGAATAATAAGGAAAATGAATTTGCATAAACTTCCTCAACTATCAATTCATCCTCCTAATTTCATGAATATTCTTTATTTATCCCGATTAAACTTCCATAAAATCCGCACAACCACCCAACAAGATAATCTTCTATCAGATGAATAAACATTGTTAAAAAACACTAGATTTCATGCTTTTTTAATAAAAATCGAACTGTGATCGCTCTCTAAGAAAGACCTCTCTGACGGGGTAATATGAATATCAGAACG (double strand) [arcACB footprinting probe]”: the binding result in data set [1] (sites 1, 2 and 4 protected, site 3 not detected, label: FAM) is recorded as “binds”.

Take “CTTCCATAAAATCCGCACAACCACCCAACAAGATAATCTTCTATCAGATGAATAAACATTGTTAAAAAACACTAGATTTCATGCTTTTTTAATAAAAATCGAACTGTGATCGCTCT (double strand) [arcACB2 probe]”: the binding result in data set [2] (two shifted bands) is reported as “binds”. On to “GCATACTTCAGTGCTATTGAGTGAATAATAAGGAAAATGAATTTGCATAAACTTCCTCAACTATCAATTCATCCTCCTAATTTCATGAATATTCTTTATTTATCCCGATTAAACTTCCATAAAATCCGCACAACCACCCAACAAGATAATCTTCTATCAGATGAATAAACATTGTTAAAAAACACTAGATTTCATGCTTTTTTAATAAAAATCGAACTGTGATCGCTCT (double strand) [arcACB1 probe]”, for which the binding result in data set [2] (four shifted bands) is given as “binds”. Still for that read-out and setting: in the case of “GCCACTGAAATAGCAATTGAATAAAATTCCCTATTTTTTATTCACCCGGAGAAAAGTCACGAGCAACCGTGCACAAGGGGAATATTTAAAGAATAGAATTTCATTATTTATAGCCAATTACCCCGCTTTATTTTTCTGGTTATTTCCGGCCAATTTATTACCCCAATATTTTGTGAACCACCGCTAAGATAATCCGCCGCAGGCTCTTTAGAATTTCTTTAACGATGAAGTGAAATTCACTTTATCACCATGAATAACAATAAAAGTTTTCACCATATTTATTACAAGTCCTAAGCTTTATTCCACGAAATACGTTGCCATATTGAATAGTATTGCAATAAACGTTTTCTAAATGAGTGAATTGAGGTGTGGG (double strand) [arcD1 probe]” it was “binds”.

Take “TCAGAGCGGAAACAGAGAAGATATGTTTGCATCATCAGACCCACACCTCAATTCACTCATTTAGAAAACGTTTATTGCAATACTATTCAATATGGCAACGTATTTCGTGGAATAAAGCTTAGGACTTGTAATAAATATGGTGAAAACTTTTATTGTTATTCATGGTGATAAAGTGAATTTCACTTCATCGTTAAAGAAATTCTAAAGAGCCTGCGGCGGATTATCTTAGCGGTGGTTCACAAAATATTGGGGTAATAAATTGGCCGGAAATAACCAGAAAAATAAAGCGGGGTAATTGGCTATAAATAATGAAATTCTATTCTTTAAATATTCCCCTTGTGCACGGTTGCTCGTGACTTTTCTCCGGGTGAATAAAAAATAGGGAATTTTATTCAATTGCTATTTCAGTGGCAGGAAAATAACTTTCGAACCAATGCTTGATTTAAATCAAGTCACTGTATCGGACAC (double strand) [arcD footprinting probe]”: in data set [1] (site 1 protected, sites 2 and 3 not protected, label: …), the binding result is given as “binds”.
